Measurements reported in patent US20240401020A1, “METHODS FOR PREVENTING INTER-DROPLET TRANSFER OF A FLUORESCENT PRODUCT IN AQUEOUS DROPLETS BY FORMING A SOLUBLE COMPLEX WITH CYCLODEXTRIN” (PATTERN BIOSCIENCE, INC., priority 2021, published 2024).

Experiments:
Type in all cases: cell-based
Conditions in all cases: 2 mM cyclodextrin vs no cyclodextrin, picoliter droplets, 38° C., 6 hours
[1] = system: droplets containing Klebsiella pneumoniae cells; test: Droplet array fluorescence leakage test with/without cyclodextrin, Klebsiella pneumoniae
[2] = system: droplets containing a first strain of Serratia marcescens cells; test: Droplet array fluorescence leakage test with/without cyclodextrin, Serratia marcescens first strain
[3] = system: droplets containing Escherichia coli cells; test: Droplet array fluorescence leakage test with/without cyclodextrin, Escherichia coli

With cyclodextrin as the substance, how does the “leakage of the fluorescent marker” value ([1]; FIG. 23A-C) read?
The value was “decreased”.

And the “intensity of fluorescence of the individual droplets” value (shortened to “intensity”) ([1]; FIG. 23B/23C)?
Its value is “significantly higher”.

What about the “leakage of the fluorescent marker” value ([2]; FIG. 25A-C) of the same substance?
The value was “decreased”.

What about the “intensity” value ([2]; FIG. 25B/25C) of the same substance?
Its value is “significantly higher”.

And the “leakage of the fluorescent marker” value ([3]; FIG. 24A-C)?
Its value is “decreased”.

And the “intensity” value ([3]; FIG. 24B/24C)?
Its value is “significantly higher”.
